The text below walks through data of patent US20240270826A1 (NATIONAL RESEARCH COUNCIL OF CANADA, published 2024).

Assay [1] concerns the target Human SARS-CoV-2 Alpha S (SARS-CoV-2 (Alpha variant)). Kind of assay: flow cytometry SVNA: VHH-Fc inhibits S binding to ACE2 on Vero E6 cells.
The target of assay [2] is T1, Human SARS-CoV-2 Alpha (B.1.1.7) S (SARS-CoV-2 (Alpha, B.1.1.7)). Kind of assay: SPR, VHH over immobilised S.
The target of assay [3] is T2, Human SARS-CoV-2 Beta (B.1.351) S (SARS-CoV-2 (Beta, B.1.351)). Description: SPR, VHH over immobilised S.
The target in assay [4] is T1, Human SARS-CoV-2 Alpha (B.1.1.7) S. Kind of assay: SPR, VHH over immobilised S. The source holds these as a separate data set. On the technique in general: In SPR one partner is held on a chip, and binding of the other changes the refractive index at the surface.
Assay [5] concerns the target T2, Human SARS-CoV-2 Beta (B.1.351) S. Description: SPR, VHH over immobilised S. This is another data set of the same source.

Read-outs that look alike come from different tables or passages of the source.

B1: NRCoV2-1d VHH-Fc (Fc fusion)
chain: EVQLVESGGGSVQPGGSLRLSCAASGSTLDYYAIGWFRQAPGKEREWVSSVSSSDGNTLYADSVKGRFTISRDNAKNTVYLQMNSLKAEDTAVYVCAADYSMRPFAVGRWHRDYEYWGQGTQVTVSS
notes: bivalent VHH-Fc
As for B1, in assay [1], the IC50 (as a rule, the concentration that gives 50% inhibition) amounted to 6.1 nM.

B2: NRCoV2-MRed19 VHH (VHH)
VHH: EVQLVESGGGLVQPGGSLRLSCAASTIIFKGQTMGWFRQAPGNERELVATMTTSGSANYADSVKGRFTISRDNEKTVTLQMNSLKPEDTALYYCYMHSVYYGIDYWGKGTQVTVSS
For B2, the Kd (as a rule, the concentration at which binding is half-saturated) in assay [2] worked out at 20.2 nM; in assay [3], 8.07 nM; in assay [4], 20.2 nM; in assay [5], 8.07 nM. In addition, the koff (in general, a measure of how fast the partners let go of each other) came to 0.0037 s⁻¹ in assay [2] and 0.00104 s⁻¹ in assay [3]. For the same molecule, the on-rate (kon) (commonly the second-order rate constant of association) in assay [2] turned out to be 183000 M⁻¹ s⁻¹; in assay [3] it was 129000 M⁻¹ s⁻¹.

B3: NRCoV2-20 VHH-Fc (Fc fusion)
chain: EVQLQQSGGGLVQPGGSLRLSCAASGRTFSNYVVGWFRQAPQAPGKDHEFVAVISGSDTETYYADSVKGRFTISRDNAKNTVYLQMNSLKPEDTAVYYCAADRGMSYYYTRATEYYYWGQGTQVTVSS
notes: bivalent VHH-Fc
In assay [1], B3 gave an IC50 of 5.2 nM. That is a single-digit nanomolar value.

B4: NRCoV2-12 VHH-Fc (Fc fusion)
chain: EVQLQQSGGGLVQAGGSLRLSCAASGRTFRNYVMGWFRQAPQAPGKDHEFVAAISWGGTEIYYADSVKGRFTISRDNAKNTVYLQMNSLKPEDTAVYYCAADRGLSYYYTRTTEYNYWGQGTQVTVSS
notes: bivalent VHH-Fc
Molecule B4 displayed an IC50 in assay [1] of 5.2 nM.

B5: NRCoV2-MRed03 VHH (VHH)
VHH: EVQLVESGGGLVQPGGSLRLSCAAIGFTLDYYAIGWFRQAPGKEREGVSCISSSDGSTYYADSVKGRFTISRDNAKNTVYLQMNSLKPEDTAVYYCATDAFATCDSWYAQIAQYDFRGQGTQVTVSS
B5: the Kd in assay [2] was determined as 0.364 nM; in assay [3] it was 0.672 nM; in assay [4], 0.36 nM; in assay [5], 0.67 nM. Also, the koff in assay [2] came to 9.89e-05 s⁻¹; in assay [3], 0.000143 s⁻¹. For the same molecule, the kon stood at 271000 M⁻¹ s⁻¹ in assay [2] and 213000 M⁻¹ s⁻¹ in assay [3].

B6: NRCoV2-MRed04 VHH-Fc (Fc fusion)
chain: EVQLVESGGGLVQPGRSLRLSCAASGNSFSISTMGWFRQAPGKERELVASIWSDTTTSYADSVKGRFTISTDNTRTKVYLQMSSLNPEDTAVYYCAADRGFVVRGQYDYWGQGTQVTVSS
notes: bivalent VHH-Fc
Turning to B6, the IC50 in assay [1] was determined as 6.4 nM. This counts as single-digit nanomolar.

B7: NRCoV2-SR13 VHH (VHH)
VHH: EVQLVESGGGLVTTGGSLRLSCATSGSRFGSKHMAWYRQAPGKQRDLVAAISSGGSTHYGSSVKGRFTISRDNAKSTVYLQMNSLNPEDTAVFYCNMGGWDYRSNTYIPGSRSDYWGQGTQVTVSS
For B7, the Kd in assay [2] was 5.82 nM; in assay [3], 7.02 nM; in assay [4], 5.8 nM; in assay [5], 7 nM. Besides, the koff in assay [2] stood at 0.00344 s⁻¹; in assay [3], 0.00401 s⁻¹. Besides, the kon was 592000 M⁻¹ s⁻¹ in assay [2] and 571000 M⁻¹ s⁻¹ in assay [3].

B8: NRCoV2-02 VHH-Fc (Fc fusion)
chain: EVQLVESGGGLVQAGGSLRLSCAASGFTFSNYAMNWVRQAPGKGLEWVSGISGRGDDTRYADSVKGRFTISRDNAKNTLFLQMRSLRPEDTGVYRCTKGPDLYYFGSGYSDRGQGTQVTVSS
notes: bivalent VHH-Fc
Consider B8, for which, in assay [1], the IC50 came to 4.2 nM.

B9: NRCoV2-SR03 VHH (VHH)
VHH: AVQLVDSGGGLVQAGGSLRLSCAASGSIFSNNHMGWYRQAPGKQRELVAAISSGGKTNYADFAKGRFTISRDNAKNMVYLQMNSLKPEDTAVYYCNRGGWEYRSSYYIMGPHWGQGTQVTVSS
Regarding B9, the Kd worked out at 1.72 nM in assay [2], 2.49 nM in assay [3], 1.72 nM in assay [4] and 2.49 nM in assay [5]. The results for the koff in assay [2] and in assay [3] were 0.000955 s⁻¹ and 0.0014 s⁻¹, respectively. The kon worked out at 555000 M⁻¹ s⁻¹ in assay [2] and 564000 M⁻¹ s⁻¹ in assay [3].

B10: NRCoV2-MRed25 VHH (VHH)
VHH: EVQLVESGGGLVQAGGSLRLSCAASGHTFSRYGMGWFRQAPGKEREFVAAISWRGDSTYYRDSVNGRFTISRDNAKNTVYLGMNSLKPEDTAVYYCAAEMWGTATIVASRYTYWGQGTQVTVSS
Take B10: the Kd in assay [2] was 0.283 nM; in assay [3], 1.6 nM; in assay [4] it was 0.28 nM; in assay [5] it was 1.6 nM. Moreover, the koff stood at 0.000289 s⁻¹ in assay [2] and 0.00329 s⁻¹ in assay [3]. Moreover, the kon turned out to be 1.02e+06 M⁻¹ s⁻¹ in assay [2] and 2.05e+06 M⁻¹ s⁻¹ in assay [3].

B11: NRCoV2-S2A4 VHH (VHH)
VHH: QVQLVQSGGGLVQAGGSLRLSCAVSGSPFRSNVMEWYRQAPGKQRELVASISTGGSRTYTDSVKGRFTISRDNAKNEAFLQMNSLKPEDTAVYYCHAAARDSHGIYLLDTWGQGTQVTVSS
As to B11, the Kd in assay [2] is 9.52 nM; in assay [3], 15.3 nM; in assay [4], 9.5 nM; in assay [5] it was 15.3 nM. In addition, the values for the koff in assay [2] and in assay [3] were 0.00236 s⁻¹ and 0.000898 s⁻¹, respectively. Moreover, the kon in assay [2] worked out at 248000 M⁻¹ s⁻¹; in assay [3], 58800 M⁻¹ s⁻¹.

B12: NRCoV2-MRed07 VHH (VHH)
VHH: EVQLVESGGGLVQPGGSLTLSCAASGSIGPFNTMGWYRQAPGNQREPAAIITRGGVTNYADSVKGRFTISRDNAKNAVYLQMDSLKPDDTAVYYCYANYGWAIPYWGNGTQVTVSS
On to B12, for which the Kd in assay [2] came to 0.264 nM; in assay [3] it was 0.231 nM; in assay [4], 0.26 nM; in assay [5], 0.23 nM. Moreover, the koff in assay [2] was 0.00103 s⁻¹; in assay [3], 0.000552 s⁻¹. In addition, the results for the kon in assay [2] and in assay [3] were 3.9e+06 M⁻¹ s⁻¹ and 2.38e+06 M⁻¹ s⁻¹, respectively.

B13: NRCoV2-SR04 VHH (VHH)
VHH: QVQLVESGGGLVQAGGSLRLSCAASGRTFSSHTVGWYRQAPGKQRDLVAAISMGGNTNYADYADSVKGRFTISRDNAKNTLYLQMNSLKPEDTAVYYCNTAALVGNRLLPMATITWGQGTQVTVSS
As to B13, the Kd is 0.267 nM in assay [2], 0.324 nM in assay [3], 0.27 nM in assay [4] and 0.32 nM in assay [5]. In addition, the koff in assay [2] worked out at 0.00075 s⁻¹; in assay [3], 0.000723 s⁻¹. Also, the kon amounted to 2.8e+06 M⁻¹ s⁻¹ in assay [2] and 2.24e+06 M⁻¹ s⁻¹ in assay [3].

B14: NRCoV2-S2G3 VHH (VHH)
VHH: QVQLVQSGGGSVQAGGSLRLSCAASGSTFGIFLMGWRRQAPGKQRELVAHITSGGATNYADSVKGRFTISRDNAKNTVYLQMNSLEPEDTAVYYCYTTKRDDASVYWGQGTQVTVSS
As for B14, the Kd in assay [2] is 1.78 nM; in assay [3], 1.85 nM; in assay [4], 1.78 nM; in assay [5], 1.85 nM. For the same molecule, the koff amounted to 0.00053 s⁻¹ in assay [2] and 0.000563 s⁻¹ in assay [3]. The kon amounted to 298000 M⁻¹ s⁻¹ in assay [2] and 304000 M⁻¹ s⁻¹ in assay [3].

B15: NRCoV2-MRed20 VHH (VHH)
VHH: EVQLVESGGGSVQAGGSLRLSCAASGLSFSSYDMGWFRQAPGKEREFVAAIRESGSGTYYADSVKGRFTISRDNAKNTVYLQVSSLKPEDTAVYTCAAKPPFYGSGTYSTPRAYLYWGQGTQVTVSS
Regarding B15, the Kd in assay [2] was 0.55 nM; in assay [3] it was 0.455 nM; in assay [4], 0.55 nM; in assay [5] it was 0.45 nM. In addition, the values for the koff in assay [2] and in assay [3] were 0.000153 s⁻¹ and 6.33e-05 s⁻¹, respectively. For the same molecule, the kon in assay [2] stood at 278000 M⁻¹ s⁻¹; in assay [3], 139000 M⁻¹ s⁻¹.

B16: NRCoV2-18 VHH-Fc (Fc fusion)
chain: EVQLVESGGGLVQAGGSLRLSCVASGITISGYNMAWWRQTRGKQTERVAFINSGGSTTYSDSVKGRFTISRDNGKNTAYLQMNSLNAEDTADYFCSLHTSHDYWGQGTQVTVSS
notes: bivalent VHH-Fc
B16 displayed an IC50 in assay [1] of 12.2 nM.

B17: NRCoV2-SR16 VHH (VHH)
VHH: QVQLVQSAGGLVQAGGSLRLSCVVSGTTFSRYHMGWHRQAPGKQRDFVAGISTSGAVTYADSAKGRFTISRDNAKNTVYLEMNSLKLEDTALYYCNTGGWDYRSSTFIMGLNWGQGTQVTVSS
As for B17, the Kd in assay [2] was determined as 1.57 nM; in assay [3], 2.57 nM; in assay [4], 1.6 nM; in assay [5] it was 2.6 nM. For the same molecule, the koff is 0.000633 s⁻¹ in assay [2] and 0.00101 s⁻¹ in assay [3]. Also, the values for the kon in assay [2] and in assay [3] were 404000 M⁻¹ s⁻¹ and 395000 M⁻¹ s⁻¹, respectively.

B18: NRCoV2-07 VHH-Fc (Fc fusion)
chain: QVQLVQSGGGLVQPGGSLRLSCAASGVTLDYYAIGWFRQAPGKEREAVSCISSNGRRNHYVASVRGRFTISRDNAKSTVYLQMNSLKPEDTAVYYCAAVQDVHGDNYYCTSPNEYNVWGQGTQVTVSS
notes: bivalent VHH-Fc
Consider B18, for which the IC50 in assay [1] is 5.7 nM. This lies in the single-digit nanomolar range.

B19: NRCoV2-MRed18 VHH (VHH)
VHH: EVQLVESGGGLVQPGGSLRLSCAASTTVFGRNAMGWYRQAPGKERELVATVSDGGTPNYADSVKGRFTISRDNAKNTIYLQMNSLEPEDTAVYYCNYYNYYYGRNFWGQGTQVTVSS
As for B19, the Kd in assay [2] stood at 12.9 nM; in assay [3], 6.48 nM; in assay [4], 12.9 nM; in assay [5], 6.48 nM. For the same molecule, the figures for the koff in assay [2] and in assay [3] were 0.00493 s⁻¹ and 0.00239 s⁻¹, respectively. In addition, the results for the kon in assay [2] and in assay [3] were 382000 M⁻¹ s⁻¹ and 369000 M⁻¹ s⁻¹, respectively.

B20: NRCoV2-MRed06 VHH (VHH)
VHH: EVQLVESGGGLVQAGGSLRLSCAASGFTLAYYAIGWFRQAPGKEREGVSCISSSDGSAHYADSVKGRFTISRDNAKNTVSLQMNSLKPEDTAVYYCATDSFSSCSDYESGMDFWGKGTQVTVSS
As to B20, the Kd in assay [2] came out at 5.72 nM; in assay [3], 7.24 nM; in assay [4], 5.72 nM; in assay [5] it was 7.24 nM. Further, the koff in assay [2] worked out at 0.0013 s⁻¹; in assay [3], 0.00101 s⁻¹. For the same molecule, the values for the on-rate constant (kon) in assay [2] and in assay [3] were 227000 M⁻¹ s⁻¹ and 139000 M⁻¹ s⁻¹, respectively.
